PubChem BioAssay AID504761 – Drosophila RNAi Screening Center | 2011
The screen tested about 22,000 reagents; this is a random part of those that have a named target and a result. Over the whole deposit, 116 (0.52%) are marked active. 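Calls depend on retest data that are not deposited; infection was ranked per plate without normalising between plates; the unit of the infection score is not given.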 Raw values vary from plate to plate and are shown uncorrected. A number with no mark means an inactive call. Reagents against one gene are numbered here. Not all columns of the deposit are shown. Not given: the amount of reagent, the time to read-out.

Test: 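Genome-wide fly cell screen for genes dengue virus requires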 (primary screen)
Cell system: D.Mel-2 cells from Drosophila
Reagents: long dsRNA against Drosophila genes
Challenge: infection with dengue virus type 2; dose and infection time not stated
Measurement: 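Per well on two replicate plates, imaging gave the percent of cells positive for viral envelope protein, ranked by infection, and a nuclear count of cells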
Direction: infection score: higher = more virus-infected cells; cell count: higher = more cells in the well
Rule for the call: 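Low infection ranks in the two replicates (chance level up to 0.065) followed by a retest with a 1.5-fold or larger significant decrease, p below 0.05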
Calls: active = confirmed: knock-down lowers infection; inactive = not picked or not confirmed

Scp2 (Sarcoplasmic calcium-binding protein 2) #1 | infection score, replicate 1 = 1.99; cell count, replicate 1 = 6391
Scp2 (Sarcoplasmic calcium-binding protein 2) #2 | infection score, replicate 1 = 3.15; cell count, replicate 1 = 6441
dpr19 (defective proboscis extension response 19) | infection score, replicate 1 = 14.4; cell count, replicate 1 = 6427
CG1847 | infection score, replicate 1 = 2.69; cell count, replicate 1 = 6540
MFS12 (Major Facilitator Superfamily Transporter 12) | infection score, replicate 1 = 9.23; cell count, replicate 1 = 4541
Jasper (JIL-1 anchoring and stabilizing protein) | infection score, replicate 1 = 9.27; cell count, replicate 1 = 1856
Yp2 (Yolk protein 2) #1 | infection score, replicate 1 = 3.72; cell count, replicate 1 = 6425
Yp2 (Yolk protein 2) #2 | infection score, replicate 1 = 14.3; cell count, replicate 1 = 6504
CG10435 #1 | infection score, replicate 1 = 5.03; cell count, replicate 1 = 6201
CG10435 #2 | infection score, replicate 1 = 3.89; cell count, replicate 1 = 6072
RpS27A (Ribosomal protein S27A) #1 | infection score, replicate 1 = 19.6; cell count, replicate 1 = 5190
RpS27A (Ribosomal protein S27A) #2 | infection score, replicate 1 = 19.1; cell count, replicate 1 = 2282

Reformatted: entries from further up
{"gene": "CG1847", "dsRNA no.": 1, "infection score, replicate 1": 2.69, "cell count, replicate 1": 6540}
{"gene": "MFS12 (Major Facilitator Superfamily Transporter 12)", "dsRNA no.": 1, "infection score, replicate 1": 9.23, "cell count, replicate 1": 4541}
{"gene": "Jasper (JIL-1 anchoring and stabilizing protein)", "dsRNA no.": 1, "infection score, replicate 1": 9.27, "cell count, replicate 1": 1856}

The list goes on:
CG7742 | infection score, replicate 1 = 3.3; cell count, replicate 1 = 6276
Osi15 (Osiris 15) | infection score, replicate 1 = 3.85; cell count, replicate 1 = 6913
l(3)S110416 (retired record) | infection score, replicate 1 = 5.37; cell count, replicate 1 = 6448
CG33306 #1 | infection score, replicate 1 = 11.7; cell count, replicate 1 = 5864
CG33306 #2 | infection score, replicate 1 = 15.3; cell count, replicate 1 = 5973
CG33223 #1 | infection score, replicate 1 = 2.71; cell count, replicate 1 = 6237
CG33223 #2 | infection score, replicate 1 = 3.45; cell count, replicate 1 = 6609
CG10866 #1 | infection score, replicate 1 = 0.92; cell count, replicate 1 = 6433
CG10866 #2 | infection score, replicate 1 = 0.27; cell count, replicate 1 = 377
